Experimental findings from US20170248602A1 are described below.

Values joined by “and” are separate entries in the source; they are usually repeats but may differ in a detail not shown here. Identical values can stand only once.

In the experiment the target is SNAP-25 cleavage product in lysate of Neuro-2a cells treated with re-targeted endopeptidase (mouse (Neuro-2a cells)) (UniProt P60879).
On to “C-18 α-SNAP-25 goat polyclonal antibodies (Santa Cruz Biotechnology)”, for which the Signal/Noise Ratio (10 nM/0 nM) was 0.8 and 0.9.
Next, “H-50 α-SNAP-25 rabbit polyclonal antibodies (Santa Cruz Biotechnology)”: 0.9 and 1; “MC-6050 mouse α-SNAP-25 monoclonal antibody (Research & Diagnostic Antibodies)”: 5.
Next, “MC-6053 mouse α-SNAP-25 monoclonal antibody (Research & Diagnostic Antibodies)”: 7.1; “N-19 α-SNAP-25 goat polyclonal antibodies (Santa Cruz Biotechnology)”: 0.9 and 1.1.
Next, “SMI-81 mouse α-SNAP-25 monoclonal antibody (Sternberger Monoclonals)”: 1.1 and 1 and 0.8; “SP12 α-SNAP-25 mouse polyclonal antibodies (Santa Cruz Biotechnology)”: 1.
